# Screening data, single-dose tests

From ChEMBL document CHEMBL3988442, “University of Dundee, Small-Polar-MMV Screening Library” (2021).

A: 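Whole-cell growth test on Mycobacterium tuberculosis, read after 3 days in glucose-containing 7H9 medium; the read-out is not stated. Compounds at 500 µM. Higher reads as more growth inhibition (inferred: compounds with an IC50 in retests scored well above the rest). Of about 18,000 compounds tested this way, about 1,400 (7.9%) reached 50% or more in at least one test.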
B: 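Growth of Mycobacterium tuberculosis over 4 days (cholesterol / DPPC medium with tyloxapol); the read-out is not stated. Tested at 500 µM. Direction is inferred from retests: higher values go with more growth inhibition. Of about 18,000 compounds tested this way, about 900 (5%) reached 50% or more in at least one test.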

Values are the deposited “Percent Effect”, in %.
The controls that fix the scale are not given in the record; negative values are as filed.
The entries come from a sample that favours strong results.
A dash means the value is not listed here; it may have been measured.

Compound | A | B
O=C(NCc1ccc2c(c1)OCO2)NCC(F)(F)F | 43.53 | -
CCc1nc(CNC)cs1 | 61 | 78.36
CCN(CC)CC(=O)NCCS(=O)(=O)C(C)(C)C | - | 18.41
CCNS(=O)(=O)CCNC(=O)Cc1cc(F)ccc1F | - | -10.08
CCC1(CC)CCCN(C(=O)CS(=O)(=O)CC)CC1 | 91.53 | 86.34
COCCN(C)CCNC(=O)c1ccc(F)c(F)c1 | 21.5 | -
C[C@@H]1CN(C(=O)c2cn(CCN)nn2)C[C@]1(C)O | 11.31 | -
CC(=O)Nc1ccc2c(c1)C(=O)N(C(C)C)C2=O | - | -10.71
CN(Cc1cc(F)cc2cccnc12)S(C)(=O)=O | 11.97 | -
O=C1NCCN2CC3(CCNCC3)CC12 (configuration not stated) | - | 2.852
CN(Cc1ccccc1)C(=O)c1cnn(C)c1 | 43.28 | -
CN1CCN(C(=O)CCn2cncn2)CC1 | 5.2 | -
CCCN(CC1CC1)S(=O)(=O)N1CC[C@@H](O)C1 | 31.76 | -
CCS(=O)(=O)N1CCC(C(=O)NC(C)COC)CC1 (configuration not stated) | 1.219 | -
Cc1cncc(CN2CCCC(CNS(N)(=O)=O)C2)c1 (configuration not stated) | - | 1.779
Cc1ccc(CC(=O)NC2(C)CCS(=O)(=O)C2)cc1 (configuration not stated) | 23.09 | -
Cn1ccnc1C1CCCNC1 (configuration not stated) | 15.91 | -
Cc1ccc(NC(=O)CN2CCC(O)CC2)c(C)c1 | - | 21.56
CCOc1cccc(Cn2cnc(CC)cc2=O)n1 | 75.83 | 61.19
Cn1cncc1CCNC(=O)c1ccc(C#N)cc1 | 6.735 | -
O=C(c1ccccn1)N1CCC2(CCCCO2)CC1 | 35.6 | 9.517
CCC(C)(C)NCc1nnnn1C1CC1 | -1.67 | -
CNS(=O)(=O)CCNC(=O)[C@@]12CNC[C@@H]1CN(C)C2 | - | -5.047
OCCc1cnn(-c2ccccc2CO)c1 | 8.535 | -
CCCC(C#N)NC(=O)c1ccn(-c2ccccc2)n1 (configuration not stated) | 71.2 | 89.54
FC(F)(F)c1cccnc1NCC1CNCCOC1 (configuration not stated) | 16.31 | -
CCOC(=O)CN1C(=O)c2ccc(Br)cc2C1=O | -4.452 | -
CCC1CN(C)c2ccccc2CN1CCS(C)(=O)=O (configuration not stated) | -5.255 | -
O=C1CN(CC(=O)N2CCCCCCC2)CCN1 | 8.697 | -
CCOc1ccc(C(=O)NCCCO)cc1OCC | 43.67 | -
CCC(=O)Nc1nc2c(s1)COCC2 | 10.53 | 6.8
Cc1ccc(-n2nnnc2NCC2CCCO2)cc1 (configuration not stated) | 61.03 | 66.03
COCCC(=O)c1ccc(F)cc1 | -4.923 | 3.332
COCCCNC(=O)C(C)N(C)CC(C)C (configuration not stated) | 10.4 | -
N#CC1COCCN1C(=O)c1ccc(Cl)cn1 (configuration not stated) | -0.172 | -
CC1CNCCN1C1CCN(C)CC1 (configuration not stated) | - | -8.893
CCCn1nnnc1NCc1ccsc1 | 66.88 | 70.63
COCCN1CCC(NC(=O)c2nccnc2N)C1 (configuration not stated) | 4.441 | -
CC1CN(C(=O)CCc2ccccc2)CCO1 (configuration not stated) | 38.39 | -
O=C(Cn1cncn1)Nc1ccc(I)cn1 | -6.199 | -15.48
O=C1NCCCC12CCN(C/C=C/c1ccccc1)C2 (configuration not stated) | 41.02 | 10.66
NCc1ccc(CN2CCC(C(N)=O)CC2)cc1 | -9.166 | -
Cc1ccc2cc(C(=O)N[C@@H](C)C(N)=O)ccc2n1 | - | -19.91
O=C(NCCC(O)C(F)(F)F)c1c(O)cc(F)cc1F (configuration not stated) | 74.27 | 77.88
COc1cc(NC(=O)N2CCCN(C)CC2)ccc1Cl | 29.47 | 7.824
CC(=O)c1ccc(NC(N)=O)cc1Cl | - | 37.97
Cc1cc(C(=O)NCCNC(=O)c2ccoc2)no1 | - | 8.98
Cc1cc(F)cc(S(=O)(=O)NCCCN)c1 | 27.41 | -
CCOC(=O)NCCNC(=O)c1ccc(O)c(Cl)c1 | - | 19.76
Cc1ccc(NC(=O)Cn2ccc(=O)n(C)c2=O)nc1 | - | 3.402
Nc1nc(CCCNC(=O)Cc2ccsc2)cs1 | 54.5 | -
CCOC1CC(CN)(N2CCOCC2)C1 (configuration not stated) | -1.448 | -
Cc1cccc2c1N(C(=O)c1ccccn1)CCC2 | -10.91 | -
CC(C)Oc1cccc(-c2cnn(CCC(N)=O)c2)c1 | 68.53 | 73
Cc1c[nH]c(CN(C)Cc2ccc(S(C)(=O)=O)cc2)n1 | 3.968 | -
CC(C)c1cccc(S(=O)(=O)NCCN)c1 | 53.43 | -

7 of the entries, repeated:

| Compound | A | B |
|---|---|---|
| `COCCN(C)CCNC(=O)c1ccc(F)c(F)c1` | 21.5 | - |
| `Cc1ccc(NC(=O)Cn2ccc(=O)n(C)c2=O)nc1` | - | 3.402 |
| `OCCc1cnn(-c2ccccc2CO)c1` | 8.535 | - |
| `COCCN1CCC(NC(=O)c2nccnc2N)C1` (configuration not stated) | 4.441 | - |
| `Nc1nc(CCCNC(=O)Cc2ccsc2)cs1` | 54.5 | - |
| `CCCN(CC1CC1)S(=O)(=O)N1CC[C@@H](O)C1` | 31.76 | - |
| `Cc1ccc(NC(=O)CN2CCC(O)CC2)c(C)c1` | - | 21.56 |